From the NIST ThermoML archive (doi:10.1016/j.fluid.2014.10.043)

Legend:
[1] = 293.2 K; 101.33 kPa; Liquid; Vibrating tube method
[2] = refractive index (Na D-line) (dimensionless); conditions: 293.2 K; 101.33 kPa; Liquid; Standard Abbe refractometry

## CCCCOP(=O)(OCCCC)OCCCC [tributyl phosphate]
[1]
  mass density: 972.7 ± 0.81 kg/m3
[2]
  refractive index: 1.4235 ± 0.0006

± gives the expanded uncertainty stated by the source.
